Measured values from several laboratories, pooled; numbers as filed in NIAID ChemDB.

Common to all: tests on isolated targets

Rows are shuffled and stem from different studies.

structure,protein,organism,dose,read-out,result
Cc1ccc(C(=O)N(c2cc(-c3cccc(C(F)(F)F)c3)sc2C(=O)O)C(C)C)cc1,NS3 ATPase,Hepatitis C virus,-,IC50,<5 µM
O=C(O)CCC(=O)N[C@H](C(=O)N[C@@H](CCC(=O)O)C(=O)N[C@@H](CCC(=O)O)C(=O)NC1(C(=O)O)CC1)C1CCCCC1,Nonstructural protein 3 NTPase/helicase,Hepatitis C virus,83.5 µM,inhibition,31%
CC(=O)Nc1nc(C)c(S(=O)(=O)Nc2ccccc2-c2nc(C(=O)O)c(O)c(=O)[nH]2)s1,HCV polymerase,Hepatitis C virus,-,IC50,<100 µM
O=C(O)CCCC(=O)N[C@H](C(=O)N[C@@H](CCC(=O)O)C(=O)N[C@@H](CCC(=O)O)C(=O)N[C@@H](CS)C(=O)O)C1CCCCC1,Nonstructural protein 3 NTPase/helicase,Hepatitis C virus,1.67 µM,inhibition,13%
CN(C(=O)c1ccccc1Cl)c1cc(-c2ccccc2)sc1C(=O)O,NS3 ATPase,Hepatitis C virus,-,IC50,5–20 µM
CC(=O)Nc1ccccc1COC(=O)Nc1ccsc1-c1nc(C(=O)O)c(O)c(=O)[nH]1,HCV polymerase,Hepatitis C virus,-,IC50,<25 µM
COCCOc1cccc(-c2ccc3cc(-c4nc5cc(C(=O)O)ccc5n4C4CCCCC4)ccc3n2)c1,NS5B polymerase,Hepatitis C virus,100 µM,inhibition,99.64%
COc1nc(Nc2ccc3cn[nH]c3c2)nc(N2CCN(C)CC2)n1,Nonstructural protein 5B,Hepatitis C virus,1 µg/mL,inhibition,0%
NC(=O)CC[C@H](NC(=O)[C@@H](NC(=O)CCC(=O)O)C1CCCCC1)C(=O)N[C@H](C(=O)N[C@@H](CS)C(=O)O)c1ccc(-c2ccccc2)cc1,Nonstructural protein 3 NTPase/helicase,Hepatitis C virus,-,IC50,<16.7 µM
CC(C)N(C(=O)c1ccc(Cl)cc1Br)c1cc(-c2ccccc2)sc1C(=O)O,NS3 ATPase,Hepatitis C virus,-,IC50,<5 µM
O=C(CC(c1ccccc1)c1ccccc1)Nc1cscc1-c1nc(C(=O)O)c(O)c(=O)[nH]1,HCV polymerase,Hepatitis C virus,-,IC50,<25 µM
CC(=O)N(Cc1ccc(Cl)cc1)c1cc(-c2ccccc2)sc1C(=O)O,NS3 ATPase,Hepatitis C virus,-,IC50,5–20 µM
COCCOc1ccc(-c2ccc(Cl)cc2)c(-c2ccc3cc(-c4nc5cc(C(=O)O)ccc5n4C4CCCCC4)ccc3n2)c1,NS5B polymerase,Hepatitis C virus,33 µM,inhibition,97.5%
CON1C(Nc2ccc3cn[nH]c3c2)=NC(NC(C)C)=NC1NC(C)C,DNA polymerase,Hepatitis B virus,1 µg/mL,inhibition,65%
O=C(O)c1cnn2c(C3CCCCC3)c(-c3ccc(C(F)(F)F)cc3)cnc12,RNA-dependent RNA polymerase,Hepatitis C virus,-,IC50,>10 µM
CC(C)N(C(=O)c1ccc(C#N)cc1)c1cc(-c2ccccc2)sc1C(=O)O,NS3 ATPase,Hepatitis C virus,-,IC50,5–20 µM
CCC(C)[C@H](NC(=O)[C@H](CC(C)C)NC(=O)CCC(=O)O)C(=O)N[C@@H](CC1CCCCC1)C(=O)N[C@@H](CS)C(=O)O,Nonstructural protein 3 NTPase/helicase,Hepatitis C virus,16.7 µM,inhibition,30%
COc1nc(Nc2ccc3cn[nH]c3c2)nc(N2CCN(C(=O)c3cccnc3)CC2)n1,DNA polymerase,Hepatitis B virus,0.1 µg/mL,inhibition,23%
O=C(O)c1cc2nc(-c3ccc(C(F)(F)F)cc3)cc(-c3ccccc3OCc3ccccc3)n2n1,RNA-dependent RNA polymerase,Hepatitis C virus,-,IC50,1–10 µM
O=C(O)c1ccc2cc(NC(=O)c3ccc4c(c3)nc(-c3ccc5nc(-c6ccccc6)cnc5c3)n4C3CCCCC3)ccc2c1,NS5B polymerase,Hepatitis C virus,100 µM,inhibition,98.99%
O=C(N[C@@H](Cc1cc2ccccc2[nH]1)C(=O)O)c1cc2nc(-c3cccs3)c(C3CCCCC3)c(=O)n2[nH]1,RNA-dependent RNA polymerase,Hepatitis C virus,-,IC50,1–10 µM
CC(=O)N[C@@H](CCC(=O)O)C(=O)N[C@@H](CCC(=O)O)C(=O)N[C@@H](CS)C(=O)O,Nonstructural protein 3 NTPase/helicase,Hepatitis C virus,-,IC50,>16.7 µM
CC(C)N(C(=O)c1ccc(Cl)cc1Cl)c1cc(-c2nn[nH]n2)sc1C(=O)O,NS3 ATPase,Hepatitis C virus,-,IC50,<5 µM
CC(=O)NCc1cccc(COC(=O)Nc2ccsc2-c2nc(C(=O)O)c(O)c(=O)[nH]2)c1,HCV polymerase,Hepatitis C virus,-,IC50,<25 µM
CCOC(=O)N1CCN(c2nc(Nc3ccc4[nH]ncc4c3)nc(OC)n2)CC1,DNA polymerase,Hepatitis B virus,0.01 µg/mL,inhibition,2%
O=C(O)c1cnn2c(C3CCCCC3)c(-c3cccc(Oc4cccc(C(F)(F)F)c4)c3)cnc12,RNA-dependent RNA polymerase,Hepatitis C virus,-,IC50,1–10 µM
COc1nc(Nc2ccc3[nH]ncc3c2)nc(N2CCCC2)n1,Nonstructural protein 5B,Hepatitis C virus,0.1 µg/mL,inhibition,20%
O=C(O)CCCC(=O)N[C@H](C(=O)N[C@@H](CCC(=O)O)C(=O)N[C@@H](CCC(=O)O)C(=O)NC1(C(=O)O)CC1)C(c1ccccc1)c1ccccc1,Nonstructural protein 3 NTPase/helicase,Hepatitis C virus,-,IC50,>167 µM
N#Cc1cccc(C(=O)Nc2ccsc2-c2nc(C(=O)O)c(O)c(=O)[nH]2)c1,HCV polymerase,Hepatitis C virus,-,IC50,<25 µM
COc1ccc(-c2ccc(C(=O)N3CCCC3)cc2-c2ccc3cc(-c4nc5cc(C(=O)O)ccc5n4C4CCCCC4)ccc3n2)cc1OC,NS5B polymerase,Hepatitis C virus,100 µM,inhibition,101%
COc1nc(NCCO)nc(Nc2ccc3[nH]ncc3c2)n1,Nonstructural protein 5B,Hepatitis C virus,1 µg/mL,inhibition,37%
COC(=O)c1cc(S(=O)(=O)Nc2cc(-c3ccccc3)sc2C(=O)O)oc1C,NS3 ATPase,Hepatitis C virus,-,IC50,<5 µM
Cc1ccccc1COc1cccc(-c2nc(C(=O)O)c(O)c(=O)[nH]2)c1,HCV polymerase,Hepatitis C virus,-,IC50,<100 µM
COc1nc(Nc2ccc3cn[nH]c3c2)nc(N2CCCC2)n1,Nonstructural protein 5B,Hepatitis C virus,0.1 µg/mL,inhibition,7%
O=C(NCc1ccccc1C(F)(F)F)Nc1ccccc1-c1nc(C(=O)O)c(O)c(=O)[nH]1,HCV polymerase,Hepatitis C virus,-,IC50,<100 µM
CNC1N=C(OC)N=C(Nc2ccc3cn[nH]c3c2)N1CN,DNA polymerase,Hepatitis B virus,0.01 µg/mL,inhibition,16%
COc1ccc(-c2ccc(Cl)cc2)c(-c2ccc3cc(-c4nc5cc(C(=O)O)ccc5n4C4CCCC4)ccc3n2)c1,NS5B polymerase,Hepatitis C virus,100 µM,inhibition,99.75%
COc1nc(NCCN2CCOCC2)nc(Nc2ccc3[nH]ncc3c2)n1,DNA polymerase,Hepatitis B virus,0.1 µg/mL,inhibition,41%
O=C(O)c1cc2nc(-c3ccccc3OCc3ccccc3)cc(-c3ccc(Cl)cc3)n2n1,RNA-dependent RNA polymerase,Hepatitis C virus,-,IC50,1–10 µM
CC[C@H](C)[C@H](NC(=O)[C@H](CC(C)C)NC(=O)CCC(=O)O)C(=O)N[C@@H](CC1CCCCC1)C(=O)NC1(C(=O)O)CC1,Nonstructural protein 3 NTPase/helicase,Hepatitis C virus,-,IC50,>167 µM
O=C(NCCCc1ccccc1)Nc1cscc1-c1nc(C(=O)O)c(O)c(=O)[nH]1,HCV polymerase,Hepatitis C virus,-,IC50,<25 µM
CC(C)C(=O)N(Cc1ccc(Cl)cc1)c1cc(-c2ccccc2)sc1C(=O)O,NS3 ATPase,Hepatitis C virus,-,IC50,5–20 µM

Percent inhibition refers to the dose given; in toxicity tests it is the harm to the cells. ICn: concentration for n% inhibition. Two numbers with a dash give a range or band. Blank or dashed fields: not listed here.